Structures are written as SMILES. A value given as a limit tells only on which side of the number the result lay.

Protein sequences, listed by entry. Tags and fused reporters are not part of them. Residues count along the entry.
UniProt P9WMR3, 400-815 limits assumed: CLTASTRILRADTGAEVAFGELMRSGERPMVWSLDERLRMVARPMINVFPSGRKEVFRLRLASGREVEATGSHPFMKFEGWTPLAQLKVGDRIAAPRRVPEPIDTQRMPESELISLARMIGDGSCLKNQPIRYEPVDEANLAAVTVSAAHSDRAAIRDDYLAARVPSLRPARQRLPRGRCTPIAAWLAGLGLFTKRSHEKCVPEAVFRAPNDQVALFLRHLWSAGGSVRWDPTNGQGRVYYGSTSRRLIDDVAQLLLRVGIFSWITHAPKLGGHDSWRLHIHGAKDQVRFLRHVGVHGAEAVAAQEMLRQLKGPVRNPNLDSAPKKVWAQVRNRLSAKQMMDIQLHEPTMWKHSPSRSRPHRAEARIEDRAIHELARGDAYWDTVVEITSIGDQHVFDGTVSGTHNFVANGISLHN

For the experiment, the target named is M. tuberculosis DnaB intein (Mycobacterium tuberculosis, UniProt P9WMR3). Briefly: GFP-DnaB intein fusion fluorometric protein splicing assay. Particulars: read-out: DnaB intein IC50; fluorescent GFP-linked protein splicing, 5 to 40 μM tested.
One may read the IC50 as the concentration that inhibits the measured activity by half. Regarding `Cc1nn2c(c1[N+](=O)[O-])n1nc(C)c([N+](=O)[O-])c1n1nc(C)c([N+](=O)[O-])c21`, the IC50 was determined as 11 µM. In the case of `O=C(c1c[nH]c(C(=O)C(Cl)(Cl)Cl)c1)c1c(Cl)cccc1Cl`, the IC50 amounted to 7 µM. With `Cc1cc(Sc2c([N+](=O)[O-])cc(C(F)(F)F)cc2[N+](=O)[O-])c(Cl)cc1Cl` the figure was below 5 µM.

The record behind these values is patent US7553832B2, “Methods and compositions for specific inhibition of protein splicing by small molecules” (Boston Biomedical Research Institute, priority 2005, dated 2009).
